This note sets out measurements from US20200262877A1, “ION CHANNEL-BINDING PEPTIDES AND METHODS OF USE THEREOF” (priority 2017, published 2020).

Targets include Kv1.3; TRPV1; Kir2.1; Kv1.2; Nav1.7; Kv1.1; Kv2.1; α4β2 nicotinic receptor; NR2B; Cav2.1; Cav2.2; TRPA1; α3β4 nicotinic receptor; GABA; 5HT3a; NR2A; Nav1.5.
Common to all, as to assay: cell-based or functional assay
For another experiment, the target named is T1, hERG, Q12809.
T1 chain: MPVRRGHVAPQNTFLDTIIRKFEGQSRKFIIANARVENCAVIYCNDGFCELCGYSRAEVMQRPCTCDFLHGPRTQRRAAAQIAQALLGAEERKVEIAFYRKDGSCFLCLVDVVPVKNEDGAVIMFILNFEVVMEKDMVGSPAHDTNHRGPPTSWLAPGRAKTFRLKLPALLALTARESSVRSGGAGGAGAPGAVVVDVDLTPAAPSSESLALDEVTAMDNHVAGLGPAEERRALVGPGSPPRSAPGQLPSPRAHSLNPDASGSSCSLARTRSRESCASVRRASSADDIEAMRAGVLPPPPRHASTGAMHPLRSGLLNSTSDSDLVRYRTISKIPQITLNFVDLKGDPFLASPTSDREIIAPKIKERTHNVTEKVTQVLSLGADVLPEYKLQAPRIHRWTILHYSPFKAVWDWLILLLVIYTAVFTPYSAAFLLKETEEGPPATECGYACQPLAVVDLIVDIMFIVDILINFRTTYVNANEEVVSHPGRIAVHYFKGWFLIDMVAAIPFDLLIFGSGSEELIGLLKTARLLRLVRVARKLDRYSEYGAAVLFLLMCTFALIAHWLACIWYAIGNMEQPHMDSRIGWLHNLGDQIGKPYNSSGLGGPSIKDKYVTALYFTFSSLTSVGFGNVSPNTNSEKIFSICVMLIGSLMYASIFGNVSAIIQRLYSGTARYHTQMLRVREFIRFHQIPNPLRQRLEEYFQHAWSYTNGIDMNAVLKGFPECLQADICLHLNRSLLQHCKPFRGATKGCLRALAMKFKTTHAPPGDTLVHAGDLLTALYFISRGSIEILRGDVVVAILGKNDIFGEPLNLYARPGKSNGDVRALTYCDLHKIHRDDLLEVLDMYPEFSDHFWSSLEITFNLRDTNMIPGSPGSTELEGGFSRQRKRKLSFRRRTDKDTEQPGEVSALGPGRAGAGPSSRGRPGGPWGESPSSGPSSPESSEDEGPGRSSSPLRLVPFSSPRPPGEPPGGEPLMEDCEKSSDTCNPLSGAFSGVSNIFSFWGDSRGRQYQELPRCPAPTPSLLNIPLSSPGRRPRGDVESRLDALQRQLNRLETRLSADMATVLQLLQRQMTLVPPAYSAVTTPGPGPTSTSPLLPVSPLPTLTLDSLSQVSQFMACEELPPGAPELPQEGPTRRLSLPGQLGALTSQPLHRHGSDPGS

As for GSEVIRCSGSKQCYGPCKQQTGCTNSKCMNKVCKCYGCG (modifications not checked) [SEQ ID NO: 2], the % activity at 0.2 µM in the experiment with Kv1.3 is 8%; with Kv1.2, 34%; in the experiment with Kv1.1 it was 114%; with Kv2.1, 80%; with NR2B, 118%. Besides, the % activity at 20 µM came to 1% with Kv1.3; 81% in the experiment with TRPV1; 89% with Kir2.1; 39% with Kv1.2; 68% with Kv1.1; 87% with Kv2.1. Moreover, the % activity at 20 µM in the experiment with α4β2 nicotinic receptor is 87%; with NR2B, 72%. Further, the % activity at 0.2 µM (TP1) with Nav1.7 came out at 89%. For the same molecule, the % activity at 0.2 µM (TP2) with Nav1.7 worked out at 74%.

Turning to GSGIGDPVTCLKSGAICHPVFCPRRYKQIGTCGLPGTKCCKKP (modifications not checked) [SEQ ID NO: 38], the % activity at 0.2 µM with Kv1.3 came out at 101%; with TRPV1 it was 98%; in the experiment with Cav2.1, 95%; in the experiment with hERG, Q12809 it was 86%; with Kir2.1 it was 88%; with Kv1.2, 100%. The % activity at 0.2 µM was 97% in the experiment with Kv1.1; 117% in the experiment with Cav2.2; 100% with Kv2.1; 138% in the experiment with TRPA1; 99% with α3β4 nicotinic receptor; 121% with GABA. For the same molecule, the % activity at 0.2 µM with α4β2 nicotinic receptor worked out at 107%; in the experiment with NR2B, 83%; in the experiment with 5HT3a, 97%; with NR2A it was 100%. The % activity at 20 µM with Kv1.3 came to 31%; with TRPV1, 76%; with Cav2.1, 93%; with hERG, Q12809, 71%; with Kir2.1, 126%; in the experiment with Kv1.2 it was 84%. Besides, the % activity at 20 µM with Kv1.1 is 73%; in the experiment with Cav2.2, 89%; with Kv2.1, 125%; in the experiment with TRPA1 it was 108%; with α3β4 nicotinic receptor, 92%; in the experiment with GABA it was 112%. Moreover, the % activity at 20 µM came out at 88% with α4β2 nicotinic receptor, 88% in the experiment with NR2B, 98% with 5HT3a and 90% with NR2A.

As to GSDCVRFWGKCSQTSDCCPHLACKSKWPRNICVWDGSVG (modifications not checked) [SEQ ID NO: 7], the % activity at 0.2 µM turned out to be 92% with Kv1.3; 118% with TRPV1; 118% with Cav2.1; 95% with hERG, Q12809; 103% with Kir2.1; 111% with Kv1.2. The % activity at 0.2 µM was determined as 92% in the experiment with Kv1.1; 87% in the experiment with Cav2.2; 105% with Kv2.1; 151% with TRPA1; 104% in the experiment with α3β4 nicotinic receptor; 118% with GABA. Besides, the % activity at 0.2 µM was 97% with α4β2 nicotinic receptor, 117% with NR2B, 98% with 5HT3a and 107% with NR2A. Further, the % activity at 20 µM with Kv1.3 is 74%; with TRPV1, 73%; in the experiment with Cav2.1, -6%; in the experiment with hERG, Q12809 it was 1%; in the experiment with Kir2.1, 101%; in the experiment with Kv1.2, 68%. The % activity at 20 µM was 102% with Kv1.1; -2% in the experiment with Cav2.2; 65% with Kv2.1; 85% with TRPA1; 87% in the experiment with α3β4 nicotinic receptor; 121% with GABA. Moreover, the % activity at 20 µM in the experiment with α4β2 nicotinic receptor stood at 84%; with NR2B it was 53%; in the experiment with 5HT3a it was 84%; with NR2A it was 65%.

For GSGDCLPHLKRCKENNDCCSKKCKRRGANPEKRCR (modifications not checked) [SEQ ID NO: 11], the % activity at 0.2 µM with Kv1.3 came to 101%; with TRPV1, 100%; with Cav2.1, 104%; in the experiment with hERG, Q12809 it was 97%; with Kir2.1 it was 107%; with Kv1.2 it was 103%. The % activity at 0.2 µM with Kv1.1 came out at 99%; with Cav2.2 it was 100%; in the experiment with Kv2.1, 121%; in the experiment with TRPA1 it was 100%; in the experiment with α3β4 nicotinic receptor it was 95%; with GABA it was 96%. Also, the % activity at 0.2 µM is 111% in the experiment with α4β2 nicotinic receptor, 103% in the experiment with NR2B, 73% with 5HT3a and 103% in the experiment with NR2A. Further, the % activity at 20 µM with Kv1.3 came out at 87%; with TRPV1, 100%; with Cav2.1, 110%; with hERG, Q12809 it was 99%; with Kir2.1 it was 97%; in the experiment with Kv1.2 it was 46%. The % activity at 20 µM is 55% with Kv1.1; 103% with Cav2.2; 110% in the experiment with Kv2.1; 96% with α3β4 nicotinic receptor; 105% in the experiment with GABA; 88% in the experiment with α4β2 nicotinic receptor. Moreover, the % activity at 20 µM with NR2B came out at 78%; in the experiment with 5HT3a, 85%; in the experiment with NR2A, 106%.

On to GSRPTDIKCSASYQCFPVCKSRFGKTNGRCVNGLCDCF (modifications not checked) [SEQ ID NO: 17], for which the % activity at 20 µM stood at 6% with Kv1.3; 90% with Cav2.1; 8% in the experiment with hERG, Q12809; 100% with Cav2.2; 129% with TRPA1; 78% in the experiment with α4β2 nicotinic receptor. Moreover, the % activity at 0.2 µM (TP1) with Nav1.7 stood at 66%. In addition, the % activity at 0.2 µM (TP2) in the experiment with Nav1.7 amounted to 61%. The results for the % activity at 0.2 µM with Cav2.2, in the experiment with TRPA1 and in the experiment with NR2B were 117%, 176% and 90%, respectively.

For GSNFKVEGACSKPCRKYCIDKGARNGKCINGRCHCYY (modifications not checked) [SEQ ID NO: 12], the % activity at 20 µM with Kv1.3 amounted to 23%; with hERG, Q12809, 81%; with Kv1.2 it was 41%; with TRPA1 it was 80%; with NR2B, 83%. Also, the % activity at 0.2 µM with Cav2.1 came out at 109%; in the experiment with TRPA1, 129%; with NR2B, 122%. For the same molecule, the % activity at 0.2 µM (TP1) with Nav1.5 amounted to 98%; with Nav1.7, 61%. Also, the % activity at 0.2 µM (TP2) was determined as 95% with Nav1.5 and 66% with Nav1.7. For the same molecule, the % activity at 20 µM (TP1) with Nav1.7 came out at 74%. Further, the % activity at 20 µM (TP2) in the experiment with Nav1.7 is 63%.

B1: SEQ ID NO: 32 (peptide)
peptide: GSQDKCKKVYENYPVSKCQLANQCNYDCKLDKHARSGECFYDEKRNLQCICDYCEY
modifications: not checked
Consider B1, for which the % activity at 20 µM with TRPV1 amounted to 84%; with hERG, Q12809 it was 65%; with Kir2.1 it was 79%; in the experiment with Kv1.1 it was 114%. Besides, the % activity at 0.2 µM was 90% with hERG, Q12809; 76% in the experiment with Kv1.1; 130% with TRPA1; 100% with α3β4 nicotinic receptor; 81% in the experiment with α4β2 nicotinic receptor; 76% with NR2B. For the same molecule, the % activity at 20 µM (TP1) with Nav1.5 was found to be 90%. Also, the % activity at 20 µM (TP2) in the experiment with Nav1.5 came to 90%.
